A mixed list of measured activities; the numbers were collected in NIAID ChemDB.

All rows: whole-cell or culture tests; species: Bovine viral diarrhea virus

ECn: concentration that inhibits the pathogen or its effect by n%. Inhibition is in % at the dose shown (toxicity tests: loss of growth or viability). Blank or dashed fields: not listed here. Conditions beyond the fields shown may differ between rows.

structure | strain | cells | tested at | measure | read by | value
O=[N+]([O-])c1ccc2[nH]c(O)c(N=NC(=S)Nc3ccccc3)c2c1 |  | MDBK |  | EC50 | cytopathic effect | >50 µg/mL
c1cc(-c2ccc(-c3nc4ccc(C5=NCCN5)cc4[nH]3)o2)ccc1C1=NCCN1 |  | MDBK | 25 µM | inhibition |  | 0%
Fc1cccc(F)c1-c1nc2ccn(CCc3ccccc3)cc-2n1 | PE515 | MDBK |  | EC50 | cytopathic effect | 0.06 µg/mL
Brc1ccc(Cn2ccc3nc(-c4ccccc4)nc-3c2)cc1 | NADL (TYPE 1) | MDBK |  | EC50 | PCR | 0.12 µM
Fc1ccc(Cn2ccc3nc(-c4c(F)cccc4F)nc-3c2)c(F)c1 | PE515 | MDBK |  | EC50 | cytopathic effect | 0.865 µg/mL
O=[N+]([O-])c1ccc2[nH]c(O)c(N=NC(=S)Nc3ccc(Br)cc3)c2c1 |  | MDBK |  | EC50 | cytopathic effect | >17 µg/mL
Clc1cccc(-c2nc3ccn(Cc4ccc(Br)cc4)cc-3n2)c1 | PE515 | MDBK |  | EC50 | cytopathic effect | 0.18 µg/mL
N=C(N)c1ccc(-c2ccc(-c3ccc(C(=N)N)cc3)o2)cc1 |  | MDBK | 25 µM | inhibition |  | >99%
Fc1ccc(Cn2ccc3nc(-c4ccccc4)nc-3c2)cc1 | PE515 | MDBK |  | EC50 | cytopathic effect | 0.097 µg/mL
NC(N)=Nc1ccc(-c2ccc(-c3ccc(N=C(N)N)cc3C(F)(F)F)o2)c(C(F)(F)F)c1 |  | MDBK | 25 µM | inhibition |  | >99%
CC1S/C(=N/N=C2\C(=O)Nc3ccc([N+](=O)[O-])cc32)N(c2ccc(Br)cc2)C1=O |  | MDBK |  | EC50 | cytopathic effect | 13 µg/mL
O=c1nc(NO)ccn1[C@@H]1O[C@H](CO)[C@@H](O)[C@H]1O |  | MDCK | 5.4 µM | inhibition |  | 90%
O=[N+]([O-])c1ccc(NC(=S)N=Nc2c(O)[nH]c3ccc([N+](=O)[O-])cc23)cc1 |  | MDBK |  | EC50 | cytopathic effect | >22 µg/mL
Fc1ccccc1Cn1ccc2nc(-c3ccccc3)nc-2c1 | PE515 | MDBK |  | EC50 | cytopathic effect | 0.009 µg/mL
CCCCNC(=S)N=Nc1c(O)[nH]c2ccc([N+](=O)[O-])cc12 |  | MDBK |  | EC50 | cytopathic effect | >50 µg/mL
c1ccc(-c2nc3ccn(CC4CCCCC4)cc-3n2)cc1 | PE515 | MDBK |  | EC50 | cytopathic effect | 0.027 µg/mL
CCCN(CCC)CCSc1nnc2c(n1)[nH]c1ccccc12 | NADL | MDBK |  | EC50 | plaque count | 0.0006 µM
O=[N+]([O-])c1ccc2c(c1)c(N=NC(=S)Nc1ccccc1)c(O)n2CN1CCOCC1 |  | MDBK |  | EC50 | cytopathic effect | >50 µg/mL